Results of unrelated studies side by side (data: NIAID ChemDB).

All rows: whole-cell or culture tests; organism: Mycobacterium smegmatis

Zones are inhibition diameters on agar. MIC50, MIC90 and the like: level of inhibition, or share of isolates inhibited. An empty or dashed field is not shown. Conditions beyond the fields shown may differ between rows.

SMILES,strain or isolate,method,endpoint,dose,result
CC(=O)O[C@@]12CO[C@@H]1C[C@H](O)[C@@]1(C)C(=O)[C@H](O)C3=C(C)C(OC(=O)/C=C/c4ccc5ccccc5c4)C[C@@](O)([C@@H](OC(=O)c4ccccc4)[C@H]21)C3(C)C,,agar / colony count / visual reading,MIC100,,60 µM
N#CC(C#N)=NNc1cccc(Cl)c1,mc2155,,MIC,,30 µg/mL
CCCc1c2c([nH]c(=O)c1C)C(=O)c1[nH]c(=O)c(C)c(CCC)c1C2=O,mc2155,resazurin / fluorescence,MIC90,,4.56 µg/mL
CC(C)C[C@H]1C(=O)N2CCC[C@H]2[C@]2(O)O[C@](NC(=O)[C@@H]3C=C4c5cccc6[nH]cc(c56)C[C@H]4N(C)C3)(C(C)C)C(=O)C12,mc2155,resazurin / fluorescence,MBC,,38.1 µM
C[C@H]1COC2(CCN(c3nc(=O)c4cc(C(F)(F)F)cc(C(=O)O)c4s3)CC2)O1,GM22,resazurin,MIC99,,0.031 µg/mL
Cc1nn(-c2ccccc2)c2c1C(c1cn(-c3ccccc3)nc1-c1ccc(Cl)cc1)C1=C(NC(C)(c3cc(O)cc(O)c3)NC1=O)O2,NCIM 5138,agar diffusion / agar,zone,0.1 mg/mL,1.6 mm
COC(=O)Cc1ccc2[nH]c3ccc(C(F)(F)F)cc3c2c1,,resazurin / visual reading / absorbance,MIC99,,>500 µg/mL
COc1nc2ccc(Br)cc2cc1[C@@H](c1ccccc1)[C@@](O)(CCN(C)C)c1cccc2ccccc12,delta-cyt-aa3,broth dilution,MIC80,,0.12 µM
Cc1nn(-c2ccccc2)c2c1C(c1cn(-c3ccccc3)nc1-c1ccc(Cl)cc1)C1=C(NC(C)(c3cc(O)ccc3Cl)NC1=O)O2,NCIM 5138,agar diffusion / agar,zone,1 mg/mL,3.6 mm
COc1c(N2CCNC(C)C2)c(F)cc2c(=O)c(C(=O)O)cn(C3CC3)c12,KD1998 (GYRA D95N),,MIC99,,0.66 µg/mL
CCN1CCN(c2nc3c(cc2F)c(=O)c(C(=O)O)cn3C(C)(C)C)CC1,ATCC 19420,,MIC,,0.13 µg/mL
CC1CN(c2c(F)cc3c(=O)c(C(=O)O)cn(C4CC4)c3c2F)CC(C)N1,KD1987 (GYRA A91V),,MIC99,,0.47 µg/mL
CC1CN(c2cc3c(cc2F)c(=O)c(C(=O)O)cn3C(C)(C)C)CCN1,ATCC 19420,,MIC,,0.06 µg/mL
COc1cccc(-c2ccc3[nH]c4cc(C(C)C(=O)O)ccc4c3c2)c1,,resazurin / visual reading / absorbance,MIC99,,>500 µg/mL
COc1c(N2CCN(C(C)C)CC2)c(F)cc2c(=O)c(C(=O)O)cn(C3CC3)c12,KD2003 (GYRA D95G),,MIC99,,3 µg/mL
O=C(O)Cc1ccc2[nH]c3ccccc3c2c1,,resazurin / visual reading / absorbance,MIC99,,>500 µg/mL
Cc1c(N2C[C@@H](N)[C@@H](F)C2)c(F)cn2c(=O)c(C(=O)O)cc(C3CC3)c12.Cl,ATCC114,,MIC,,0.1 µg/mL
Cc1ccc2[nH]c3c(C)c4ccncc4c(C)c3c2c1,mc2155,resazurin / fluorescence,MBC,,>100 µM
CC(C)C[C@H](NC(=O)[C@H](Cc1ccccc1)NC(=O)c1cnccn1)B(O)O,,turbidity,MIC50,,4 µM
CC1CN(c2nc3c(cc2F)c(=O)c(C(=O)O)cn3C(C)(C)C)CCN1,ATCC 19420,,MIC,,0.06 µg/mL
CCCN(CCC)C(=O)c1cc(C)cc(C(=O)N[C@@H]([C@@H](O)CNCc2cccc(I)c2)C(F)(F)c2ccccc2)c1,ATCC 19420,agar diffusion,zone,100 µg/disc,0 mm
COC(=O)C(C)c1ccc2[nH]c3ccc(Cl)cc3c2c1,,resazurin / visual reading / absorbance,MIC99,,>500 µg/mL
CCCN(CCC)C(=O)c1cc(C)cc(C(=O)N[C@@H](Cc2ccccc2)[C@H](O)CNCc2cccc(I)c2)c1,ATCC 19420,agar diffusion,zone,100 µg/disc,15 mm
CCC1CN(c2c(F)cc3c(=O)c(C(=O)O)cn(C4CC4)c3c2F)CCN1,KD1995 (GYRA D95H),,MIC99,,1.2 µg/mL
Cc1nn(-c2ccccc2)c2c1C(c1cn(-c3ccccc3)nc1-c1ccc(Cl)cc1)C1=C(NC(C)(c3cc(O)c(I)cc3Cl)NC1=O)O2,NCIM 5138,agar diffusion / agar,zone,0.1 mg/mL,4.2 mm
CC(/C=C/[C@@]1(C)[C@H](C)CCC(=O)[C@@H]1C)=C\Cc1c(O)c(Cl)c(C)c(C=O)c1O,ATCC 607,agar diffusion,zone,10 µg/disc,7 mm
Cc1nn(-c2ccccc2)c2c1C(c1cn(-c3ccccc3)nc1-c1ccc(F)cc1)C1=C(NC(C)(c3cc(O)cc(O)c3)NC1=O)O2,NCIM 5138,agar diffusion / agar,zone,0.1 mg/mL,4.1 mm
Cc1c(N2CCCC(CF)C2)c(F)cn2c(=O)c(C(=O)O)cc(C3CC3)c12,ATCC114,,MIC,,0.2 µg/mL
CC(C(=O)O)c1ccc2[nH]c3ccc(Cl)cc3c2c1,,resazurin / visual reading / absorbance,MIC99,,>500 µg/mL
CCN1CCN(c2c(F)cc3c(=O)c(C(=O)O)cn(C4CC4)c3c2F)CC1,ATCC 19420,,MIC,,0.25 µg/mL
CC[C@@H](CO)NCCN[C@@H](CC)CO,ATCC 607,broth dilution,MIC99,,<0.2 µg/mL
CN(C)[C@@H]1C(=O)C(C(N)=O)=C(O)[C@@]2(O)C(=O)C3=C(O)c4c(O)cccc4[C@@](C)(O)[C@H]3C[C@@H]12,MC^2 155 (CCCP),,MIC,,0.5 µg/mL
CCC1CN(c2c(F)cc3c(=O)c(C(=O)O)cn(C4CC4)c3c2OC)CCN1,KD2008 (GYRA G89C),,MIC99,,0.65 µg/mL
COC(=O)C(C)c1ccc2c(c1)[nH]c1ccc(Cl)cc12,,resazurin / visual reading / absorbance,MIC99,,>500 µg/mL
Cc1c(N2CC[C@@H]([C@H](C)N)C2)c(F)cn2c(=O)c(C(=O)O)cc(C3CC3)c12.Cl,ATCC114,,MIC,,0.1 µg/mL
CC(C)(C)c1ccc(C(=O)Nc2nc(-c3ccccn3)cs2)cc1,,visual reading,MIC99,,12.5 µM
CC(C(=O)O)c1ccc2c(c1)[nH]c1ccc(C3CCCCC3)cc12,,resazurin / visual reading / absorbance,MIC99,,>500 µg/mL
CC1CN(c2nc3c(cc2F)c(=O)c(C(=O)O)cn3-c2ccc(F)cc2F)CCN1,ATCC 19420,,MIC,,0.5 µg/mL
Clc1ccc2[nH]c3ccccc3c2c1,,resazurin / visual reading / absorbance,MIC99,,>500 µg/mL
NCC[C@H](O)C(=O)N[C@@H]1C[C@H](N)[C@@H](O[C@H]2O[C@H](CN)[C@@H](O)[C@H](O)[C@H]2O)[C@H](O)[C@H]1O[C@H]1O[C@H](CO)[C@@H](O)[C@H](N)[C@H]1O,6 strains,,Median MIC,,0.25 µg/mL
CC1CN(c2cc3c(cc2F)c(=O)c(C(=O)O)cn3C2CC2)CCN1,KD1995 (GYRA D95H),,MIC99,,2.7 µg/mL
Cc1c(N2C[C@@H]3CCC[C@@H](N)[C@H]3C2)c(F)cn2c(=O)c(C(=O)O)cc(C3CC3)c12.Cl,ATCC114,,MIC,,0.1 µg/mL
Cc1c2ccncc2c(C)c2c1[nH]c1ccc(Br)cc12,mc2155,resazurin / fluorescence,MBC,,>100 µM
O=C(O)c1cc(C(F)(F)F)cc2c(=O)nc(N3CCN(CC4CCCCC4)CC3)sc12,MN84,resazurin,MIC99,,>100 µg/mL

Repeating the final 3 entries:

| SMILES | strain or isolate | method | endpoint | dose | result |
|---|---|---|---|---|---|
| Cc1c(N2C[C@@H]3CCC[C@@H](N)[C@H]3C2)c(F)cn2c(=O)c(C(=O)O)cc(C3CC3)c12.Cl | ATCC114 |  | MIC |  | 0.1 µg/mL |
| Cc1c2ccncc2c(C)c2c1[nH]c1ccc(Br)cc12 | mc2155 | resazurin / fluorescence | MBC |  | >100 µM |
| O=C(O)c1cc(C(F)(F)F)cc2c(=O)nc(N3CCN(CC4CCCCC4)CC3)sc12 | MN84 | resazurin | MIC99 |  | >100 µg/mL |